Results of unrelated studies side by side (data: NIAID ChemDB).

Common to all: tests in culture; organism: HIV-1

An empty or dashed field is not shown. Rows are shuffled and stem from different studies. Inhibition is in % at the dose shown (toxicity tests: loss of growth or viability). Fold resistance: result on the changed form divided by that on wild type. ECn: concentration that inhibits the pathogen or its effect by n%.

structure,strain or isolate,cells,mutations,read by,dose,endpoint,setting,result
O=C1N(Cc2ccc(CO)cc2)[C@H](Cc2ccccc2)[C@H](O)[C@@H](O)[C@@H](Cc2ccccc2)N1Cc1ccc(CO)cc1,Clinical isolate W,PBMC,-,p24,0.11 µM,inhibition,-,90%
O=C(CSc1nnnn1-c1ccccc1Br)Nc1ccccc1Cl,-,MT-4,-,p24,-,EC95,-,<10 µM
Nc1ncnc2c1ncn2[C@H]1CC[C@@H](CO)O1,LAV-1,U-937,-,virus yield,1 µM,inhibition,-,90%
Cc1ccnc2c1NC(=O)c1cccnc1N2C1CC1,NL4-3(RT-4XAZT+L100I),CEM + CEM-SS,RT-D67N K70R L100I T215Y K219Q,XTT,-,fold resistance,-,1.5
Cc1cc(S(N)(=O)=O)ccc1NC(=O)COc1ccc(Cl)cc1C(=O)c1cc(Cl)cc(C#N)c1,NNRTI-resistant (RT V106A),MAGI,RT-V106A,β-galactosidase,-,EC50,-,0.0034 µM
CC(C)c1nc(CN(C)C(=O)N[C@H](C(=O)N[C@@H](Cc2ccccc2)C[C@H](O)[C@H](Cc2ccccc2)NC(=O)OCc2cncs2)C(C)C)cs1,NL4-3,MT-4,PR-D30N,p24,-,EC90,-,0.01 µM
Cc1cc(C)c(-n2nnnc2SCC(=O)Nc2cccc(F)c2F)c(C)c1,-,MT-4,-,p24,-,EC95,-,<10 µM
CCn1nc(Cc2ccc(C)cc2)cc1C1CCN(C[C@H]2CN([C@@H](C(=O)O)C(C)(C)C)C[C@@H]2c2cccc(F)c2)CC1,BaL,HeLa,-,β-galactosidase,-,EC90,50% human serum,0.033 µM
CC(C)[C@H](NC(=O)c1ccc2ccccc2n1)C(=O)N[C@@H](Cc1ccccc1)[C@H](O)CN1CC[C@@H](OCc2ccncc2)C[C@H]1C(=O)NC(C)(C)C,VR1372,PBMC,-,p24,0.014 µM,inhibition,-,90%
Nc1ccn([C@@H]2CS[C@H](CO)O2)c(=O)n1,-,Primary T lymphocytes,L74V,p24 / ELISA,-,EC90,-,2.9 µM
Cc1cn([C@H]2C[C@H](N=[N+]=[N-])[C@@H](CO)O2)c(=O)[nH]c1=O,RT-M184V XM-M184V,PBMC,RT-M184V,p24,-,EC90,-,0.02 µM
Cc1cc(C)c(-n2nnnc2SCC(=O)Nc2cccnc2Cl)c(C)c1,-,MT-4,-,p24,-,EC95,-,<10 µM
CC(C)=CCN1c2cc(Cl)cc3[nH]c(=S)n(c23)C[C@@H]1C,-,MT-4,RT-M41L T215Y K103N,-,-,EC95,-,0.8 µM
Cc1ccnc2c1NC(=O)c1cccnc1N2C1CC1,HIVRTMF (RT L74V),HT4 + HT4 LacZ-1,RT-L74V T215Y,plaque count,-,fold resistance,-,0.833
Cc1cc(C)c(-n2nnnc2SCC(=O)Nc2cccc(Cl)c2F)c(C)c1,-,MT-4,-,p24,-,EC95,-,<10 µM
CC(C)CN(C[C@@H](O)[C@H](Cc1ccccc1)NC(=O)[C@H](CC(N)=O)NC(=O)c1ccc2ccccc2n1)C(=O)NC(C)(C)C,NL4-3,MT-4,PR-M46I L63P V82T,p24,-,EC95,-,0.4 µM
Cc1cc(C)c(-n2nnnc2SCC(=O)Nc2sccc2C#N)c(C)c1,-,MT-4,-,p24,-,EC95,-,<10 µM
Cc1cn([C@H]2C[C@H](N=[N+]=[N-])[C@@H](CO)O2)c(=O)[nH]c1=O,NL4-3,CEM + CEM-SS,RT-L74V,XTT,-,fold resistance,-,5
Cc1cc(C)c(-n2nnnc2SCC(=O)Nc2cccc([N+](=O)[O-])c2)c(C)c1,-,MT-4,-,p24,-,EC95,-,<10 µM
CCOc1ccc(Cc2cc(C3CCN(C[C@H]4CN([C@@H](C(=O)O)[C@@H](C)CC)C[C@@H]4c4cccc(F)c4)CC3)n(CC)n2)cc1F,BaL,HeLa,-,β-galactosidase,-,EC90,50% human serum,0.011 µM
Cn1c2ccccc2c2c1cc(C#N)c(=O)n2-c1ccc([N+](=O)[O-])cc1,NRTI resistant,HeLa,RT-D67N T69N M184V T215F K219Q,luciferase,-,fold resistance,-,1.9
CC[C@H](C)[C@H](C(=O)O)N1C[C@H](CN2CCC(c3cc(Cc4cccc(OC)c4)nn3CC)CC2)[C@@H](c2cccc(F)c2)C1,BaL,HeLa,-,β-galactosidase,-,EC90,50% human serum,0.1 µM
COc1cc(O)c2c(=O)oc3cc(O)cc(C)c3c2c1,NL4-3,PBMC,-,p24 / ELISA,180 µM,inhibition,3 d,75%
CC(=O)c1sccc1NC(=O)CSc1nnnn1-c1c(C)cc(C)cc1C,-,MT-4,-,p24,-,EC95,-,<10 µM
O=S(=O)(O)c1cc(N=C=S)ccc1CCc1ccc(N=C=S)cc1S(=O)(=O)O,GB8,JM,-,syncytia,100 µg/mL,inhibition,-,100%
CC[C@H](C)[C@H](C(=O)O)N1C[C@H](CN2CCC(c3cc(Cc4ccc(S(=O)(=O)c5ccccc5)cc4)nn3CC)CC2)[C@@H](c2cccc(F)c2)C1,BaL,HeLa,-,β-galactosidase,-,EC90,-,<0.00014 µM
N#Cc1cc2[nH]c3ccccc3c2n(-c2ccc([N+](=O)[O-])cc2)c1=O,Recombinant,HeLa,RT-V118I M184V,luciferase,-,fold resistance,-,3.3
CCOc1ccc(Cc2cc(C3CCN(C[C@H]4CN([C@@H](C(=O)O)C5CCCCC5)C[C@@H]4c4cccc(F)c4)CC3)n(CC)n2)cc1,BaL,HeLa,-,β-galactosidase,-,EC90,50% human serum,0.033 µM
O=c1[nH]cnc2c1ncn2[C@H]1CC[C@@H](CO)O1,XM-AZT-resistant,MT-4,RT-M41L D67N K70R T215Y K219Q,p24,-,EC90,-,11 µM
COCCNC(=O)[C@@H](NC(=O)[C@H](Cc1ccc(OC)c(OC)c1OC)C[C@H](O)[C@H](Cc1ccccc1)NC(=O)OC(C)(C)C)C(C)C,-,PBL,-,-,-,EC99,-,0.12 µM
CCCc1cc(=O)oc2c3c(c4c(c12)OC(C)(C)C=C4)O[C@H](C)[C@@H](C)[C@@H]3O,NL4-3 1 (RT K101E),CEM + CEM-SS,RT-K101E,XTT,-,EC50,-,1.7 µM
CO[P@](=O)(c1cc(C)cc(/C=C/C#N)c1)c1c(C(N)=O)[nH]c2ccc(Cl)cc12,BH10,MT-4,K103N,-,-,EC50,-,0.0001 µM
CC[C@H](C)[C@H](C(=O)O)N1C[C@H](CN2CCC(c3cc(Cc4cccc(CN)c4)nn3CC)CC2)[C@@H](c2cccc(F)c2)C1,BaL,HeLa,-,β-galactosidase,-,EC90,-,0.0012 µM